# PubChem BioAssay AID504761 – Drosophila RNAi Screening Center | 2011
# Screen: 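Genome-wide fly cell screen for genes dengue virus requires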 (primary screen)
# Cells: D.Mel-2 cells from Drosophila
# Knock-down reagent: long dsRNA against Drosophila genes
# Challenge: infection with dengue virus type 2; dose and infection time not stated
# Read-out: 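Cells stained for dengue envelope protein and imaged; percent of infected cells per well on duplicate plates, ranked by infection, with stained nuclei counted for cell number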
# Reading the numbers: infection score: higher = more virus-infected cells; cell count: higher = more cells in the well
# Call rule: 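Very low infection ranking in both replicate wells (chance probability at most 0.065), then a retest showing infection dropped 1.5-fold or more at p below 0.05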
# Calls: active = confirmed: knock-down lowers infection; inactive = not picked or not confirmed
# In all, the deposit lists about 22,000 reagents; below is a random part of those that have a named target and a result. Of all reagents, 116 (0.52%) are marked active. 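Calls depend on retest data that are not deposited; infection was ranked per plate without normalising between plates; the unit of the infection score is not given.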 Raw values vary from plate to plate and are shown uncorrected. The numbers tell different reagents against one gene apart. A plus sign joins genes that one reagent is predicted to hit. The record does not give: the amount of reagent, the time to read-out.
Gene,reagent no.,"infection score, replicate 1","infection score, replicate 2","cell count, replicate 1","cell count, replicate 2",call
CG32006,1,8.59,3.63,6637,6646,inactive
CG32006,2,20.8,7.4,5931,5273,inactive
Pldn (Pallidin),1,1.53,3.77,5881,6497,inactive
Pldn (Pallidin),2,25.7,13.7,4417,5031,inactive
CG32801,1,3.07,17.6,1172,5749,inactive
CG32801,2,6.94,4.37,5709,5907,inactive
CG7137,1,9.18,8.56,4704,4392,inactive
CG13028,1,2.55,1.99,6636,6281,inactive
Rme-8 (Receptor mediated endocytosis 8),1,19.9,24.6,5764,6300,inactive
BORCS6 (BLOC-1 related complex subunit 6),1,1.92,0.54,5882,5692,inactive
BORCS6 (BLOC-1 related complex subunit 6),2,1.46,1.84,6296,6527,inactive
Syx8 (Syntaxin 8),1,6.11,8.03,5827,5669,inactive
Syx8 (Syntaxin 8),2,1.79,10.6,6027,5343,inactive
Syx8 (Syntaxin 8),3,16.8,13.5,6603,6862,inactive
unc-119,1,2.41,1.77,6809,6792,inactive
CG33062,1,3.13,1.34,6653,6395,inactive
CG33062,2,5.15,4.03,6413,6429,inactive
CG6654,1,9.53,31,6802,5488,inactive
CG3726,1,2.9,5.54,6587,7742,inactive
CG3726,2,5.74,9.62,6429,5676,inactive
CG13058,1,1.26,5.16,5862,5915,inactive
CG13058,2,9.18,28.2,6516,5721,inactive
CG13315,1,2.06,7.09,5716,5949,inactive
RpL29 (Ribosomal protein L29),1,4.08,3.48,6425,6697,inactive
Fbp1 (Fat body protein 1),1,0.78,0.95,6022,6025,inactive
Fbp1 (Fat body protein 1),2,0.58,5.02,6549,5752,inactive
CG14096,1,8.74,15.8,6601,6345,inactive
tst + CG10375,1,2.94,6.14,5814,6155,inactive
CG33769,1,6.14,4.52,6998,6555,inactive
CG14739,1,5.88,8.8,6485,6691,inactive
CG12783,1,0.52,5.81,6529,7043,inactive
Mst57Da (Male-specific RNA 57Da),1,1.74,9.21,1262,6734,inactive
CG14374,1,5.58,14.1,4858,6786,inactive
CG1418,1,6.44,6.79,6831,6263,inactive
CG1418,2,14.3,20.7,6275,6283,inactive
Psf2 (Partner of Sld Five 2),1,2.31,2.83,6765,6544,inactive
Grl36b (Gustatory receptor-like 36b),1,4.31,1.05,6169,6091,inactive
CG44325,1,8.58,16.6,5795,6109,inactive
Ir7a (Ionotropic receptor 7a),1,,4.25,409,1459,inactive
RpS17 (Ribosomal protein S17),1,12.1,8.66,4730,5092,inactive
RpS17 (Ribosomal protein S17),2,10,6.65,2191,1955,inactive
CG8369,1,3.55,9.33,5921,6366,inactive
erm (earmuff),1,5.35,14.7,6075,5956,inactive
CG4133,1,3.22,1.55,6343,6320,inactive
Uba5 (Ubiquitin-like activating enzyme 5),1,14,4.49,3309,5991,inactive
fliI (flightless I),1,27.2,5.13,4176,6378,inactive
LysX (Lysozyme X),1,5.83,3.83,5813,6190,inactive
CG10077,1,18.5,5.85,6020,5997,inactive
CG10077,2,2.86,5.23,6646,6940,inactive
Ccdc85,1,0.58,9.56,6390,6149,inactive
CG13380 + CG4174,1,3.36,9.92,6340,6701,inactive
CG13380 + CG4174,2,2.56,10.7,6367,6098,inactive
galectin,1,1.76,3.58,6578,6585,inactive
ATPCL (ATP citrate lyase),1,14.8,21.2,6772,6230,inactive
ATPCL (ATP citrate lyase),2,0.83,33.4,6111,4908,inactive
Jon65Aii (Jonah 65Aii),1,5.67,5.68,6152,5899,inactive
Ir94h (Ionotropic receptor 94h),1,7.05,8.09,6315,5723,inactive
Peritrophin-15b,1,7.28,1.4,6082,6562,inactive

Part of the list above, set out differently.
Gene	reagent no.	infection score, replicate 1	infection score, replicate 2	cell count, replicate 1	cell count, replicate 2	call
CG32006	2	20.8	7.4	5931	5273	inactive
Pldn (Pallidin)	1	1.53	3.77	5881	6497	inactive
Pldn (Pallidin)	2	25.7	13.7	4417	5031	inactive
CG32801	1	3.07	17.6	1172	5749	inactive
CG32801	2	6.94	4.37	5709	5907	inactive
CG7137	1	9.18	8.56	4704	4392	inactive
